Laboratory results: PubChem BioAssay AID504761 (Drosophila RNAi Screening Center, 2011)

Aim: 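Fly genes whose silencing reduces dengue virus type 2 infection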 (primary screen)
System: D.Mel-2 cells from Drosophila
Knock-down reagent: long dsRNA against Drosophila genes
Challenge: infection with dengue virus type 2; dose and infection time not stated
Read-out: 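Per well on two replicate plates, imaging gave the percent of cells positive for viral envelope protein, ranked by infection, and a nuclear count of cells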
Reading the numbers: infection score: higher = more virus-infected cells
Rule for the call: 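Low infection ranks in the two replicates (chance level up to 0.065) followed by a retest with a 1.5-fold or larger significant decrease, p below 0.05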
Meaning of the calls: active = confirmed: knock-down lowers infection; inactive = not picked or not confirmed
In all, the deposit lists about 22,000 reagents; shown is a random part of those that have a named target and a result. Over the whole deposit, 116 (0.52%) got an active call. 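Calls depend on retest data that are not deposited; infection was ranked per plate without normalising between plates; the unit of the infection score is not given.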 Unmarked entries are inactive. A plus sign joins genes that one reagent is predicted to hit. Not all columns of the deposit are shown. Not given: the amount of reagent, the time to read-out.

For Dys + snoRNA:Me18S-A1374 [DRSC16232], what was measured?
infection score, replicate 1: 9.74

What is on record for IM33 [DRSC00476]?
infection score, replicate 1: 4.3

For IM33 [DRSC24513], what does the deposit list?
infection score, replicate 1: 2.74

With CG31751 [DRSC02464], what does the deposit list?
infection score, replicate 1: 2.23

With CG31751 [DRSC02465], how do the results read?
infection score, replicate 1: 9.5

For CG2004 [DRSC18200], how do the results read?
infection score, replicate 1: 1.83

For CG17574 [DRSC06681], what does the deposit list?
infection score, replicate 1: 6.24

With Rnp4F [DRSC18706], what does the deposit list?
infection score, replicate 1: 2.75

With Rnp4F [DRSC26480], what was measured?
infection score, replicate 1: 1.49

With CG7523 [DRSC16254], what was measured?
infection score, replicate 1: 13.7

What is on record for ninaB [DRSC16807]?
infection score, replicate 1: 1.41

With ninaB [DRSC27875], what was measured?
infection score, replicate 1: 14.8
